Single amino acid changes in Zika NS2B-NS3 and viral growth

Values reported by Ni et al. 2025 (doi:10.1038/s41467-025-63602-z).

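Mutant virus pools were grown in human Huh-7.5 cells. Deep sequencing gave the change in frequency of each mutant relative to wild type, averaged over three replicate libraries (two for positions 207-308). The aim was to find sites where inhibitor-binding pockets cannot change.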

Protein: NS2B and the protease part of NS3 of Zika virus strain MR766. Positions count along the chain below; NS2B spans 2-131 and NS3 starts at 132.
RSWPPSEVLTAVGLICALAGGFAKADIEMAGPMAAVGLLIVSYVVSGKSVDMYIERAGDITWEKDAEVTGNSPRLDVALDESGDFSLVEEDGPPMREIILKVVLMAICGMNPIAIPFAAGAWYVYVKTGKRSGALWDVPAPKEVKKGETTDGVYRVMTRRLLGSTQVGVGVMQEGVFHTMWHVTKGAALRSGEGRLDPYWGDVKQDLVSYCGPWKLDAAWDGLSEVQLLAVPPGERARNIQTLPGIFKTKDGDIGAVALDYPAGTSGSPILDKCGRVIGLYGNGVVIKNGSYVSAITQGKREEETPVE

The number is log2 of the effect relative to wild type; negative values mean reduced growth, higher values better tolerance. A change reads original residue, position, new residue. This list holds changes to proline only. Positions 1-103, 104-206 and 207-308 were made and measured as separate libraries.

| substitution | log2 effect |
|---|---|
| G201P | -7.05 |
| D202P | -6.33 |
| V203P | -7.76 |
| K204P | -7.57 |
| Q205P | -8.61 |
| D206P | -7.75 |
| L207P | -7.89 |
| V208P | -8.49 |
| S209P | -6.03 |
| Y210P | -7.33 |
| C211P | -6.75 |
| G212P | -7.54 |
| W214P | -8.04 |
| K215P | -7.70 |
| L216P | -7.26 |
| D217P | -6.69 |
| A218P | -7.11 |
| A219P | -7.32 |
| W220P | -6.63 |
| D221P | -6.51 |
| G222P | -6.06 |
| L223P | -5.96 |
| S224P | -6.34 |
| E225P | -4.17 |
| V226P | -5.77 |
| Q227P | -7.74 |
| L228P | -5.65 |
| L229P | -3.04 |
| A230P | -5.70 |
| V231P | -4.04 |
| G234P | -4.86 |
| E235P | -5.87 |
| R236P | 1.15 |
| A237P | 1.54 |
| R238P | -6.28 |
| N239P | -6.66 |
| I240P | -6.90 |
| Q241P | -7.88 |
| T242P | -6.50 |
| L243P | -6.72 |
| G245P | -5.95 |
| I246P | -5.98 |
| F247P | -6.47 |
| K248P | -7.00 |
| T249P | -7.19 |
| K250P | -1.46 |
| D251P | -6.28 |
| G252P | -6.28 |
| D253P | -6.44 |
| I254P | -6.56 |
| G255P | -6.17 |
| A256P | -7.04 |
| V257P | -5.41 |
| A258P | -6.64 |
| L259P | -5.92 |
| D260P | -4.71 |
| Y261P | -4.45 |
| A263P | -0.22 |
| G264P | -5.94 |
| T265P | -5.35 |
| S266P | -5.45 |
| G267P | -5.76 |
| S268P | -5.12 |
| I270P | -5.28 |
| L271P | -3.39 |
| D272P | -3.92 |
| K273P | -0.96 |
| C274P | -5.31 |
| G275P | -4.66 |
| R276P | -5.77 |
| V277P | -5.74 |
| I278P | -5.50 |

The opening 9 entries, copied out:

G201P gave -7.05.
D202P gave -6.33.
V203P gave -7.76.
K204P gave -7.57.
Q205P gave -8.61.
D206P gave -7.75.
L207P gave -7.89.
V208P gave -8.49.
S209P gave -6.03.

Position 1 still belongs to NS2A. In the paper, -1 or higher counts as tolerated. Six mutants with high scores were retested singly and none clearly outgrew wild type, so positive values are not proof of better growth.